Data published in patent US20260021071A1, “SMALL MOLECULE BROAD-SPECTRUM ANTIBIOTICS” (University of Florida Research Foundation, Incorporated, priority 2022, published 2026).

What follows are molecules tested on wild-type HepG2 cells (assay: HepG2 cytotoxicity assay (CellTiter-Glo, cellular ATP)). Settings: HepG2 cytotoxicity dose-response curve.

SMILES	Hill Slope
Cc1ccc(Nc2nc3nonc3nc2NC(C)C)cc1C [Compound 4]	11.28
Cc1c(Nc2nc3nonc3nc2Nc2ccc(F)cc2)c(=O)n(-c2ccccc2)n1C [Compound 5]	11.29
N#Cc1cccc(NC(=O)Nc2cccc(Cl)c2)c1 [Compound 6]	14.00
N#Cc1ccc(NC(=O)Nc2cccc(Cl)c2)cc1 [Compound 7]	18.06
O=C(Nc1ccc([N+](=O)[O-])cc1)NC(C(F)(F)F)C(F)(F)F [Compound 8]	12.60
